Pooled drug test results. Numbers come from NIAID ChemDB, via PubChem.

Shared fields: growth or infection tests; agent: Candida tropicalis; read by: broth dilution; endpoint: MIC

Conditions beyond the fields shown may differ between rows. Blank or dashed fields: not listed here.

compound,strain or isolate,result
O=C(N/N=C/c1ccc(F)cc1)c1ccc(CNc2nc3ccccc3[nH]2)cc1,,100 µg/mL
CCOc1ccc2nc3cc(N=C4NC(=O)/C(=C\c5ccc([N+](=O)[O-])o5)S4)ccc3c(N)c2c1,ATCC 8302,31.3 µg/mL
Cc1nn2c(-c3ccncc3)nnc2sc1=NNc1ccc(Cl)cc1,ATCC 66029,12.5 µg/mL
CCCCCCCCCCCCCCCCn1cc[n+](C)c1,72A,0.014 µg/mL
CCOC(=O)c1c(N)oc2c(C)cc(O)c(C)c12,KCCM 50662,25 µg/mL
CCCCCCCCCCCCCCCC(=O)NCCCCN,ATCC 750,16 µg/mL
O=C(CCn1ccnc1)c1cccc(C(O)c2ccc(Br)cc2)c1,RTCC 1065,>64 µg/mL
Nc1[nH]c(=O)ncc1F,KCCM 50662,25 µg/mL
O=C(N/N=C/c1ccc(Cl)cc1)c1ccc(CNc2nc3ccccc3[nH]2)cc1,,50 µg/mL
CCCCCCCCCCCCCCCC(=O)NC(CCCCN)C(=O)NC(CCCCN)C(N)=O,4805,16 µg/mL
C[C@H]1[C@H](O)[C@@H](C)/C=C/C=C/C=C/C=C/C=C/C=C/C=C/[C@H](O[C@@H]2O[C@H](C)[C@@H](O)[C@H](N)[C@@H]2O)C[C@@H]2O[C@](O)(C[C@@H](O)C[C@@H](O)CC[C@H](O)[C@@H](O)C[C@@H](O)CC(=O)O[C@H]1C)C[C@H](O)[C@H]2C(=O)O,750,0.06 µg/mL
OC(CCn1ccnc1)c1cccc(C(O)c2ccc(Cl)c(Cl)c2)c1,RTCC 1065,>64 µg/mL
O=C1C=CC[C@H](/C=C/c2ccccc2)O1,,>100 µg/mL
O=c1cc(-c2ccc(O)c(O)c2)oc2cc(O)c([C@@H]3O[C@H](CO)[C@@H](O)[C@H](O)[C@H]3O)c(O)c12,ATCC 750,250 µg/mL
Cc1ccc(/C=N/NC(=O)c2ccc(CNc3nc4ccccc4[nH]3)cc2)cc1,,50 µg/mL
CCOC(=O)c1c(N)oc2ccc(O)cc12,KCCM 50662,25 µg/mL
CCCC[C@@H](C)/C=C(C)/C=C(\C)C(=O)N/C(=C/[C@@](C)(O)/C=C/C=C/C=C/C(=O)NC1=C(O)CCC1=O)C(=O)[C@@H]1CO1,2,25 µM
N=c1oc2ccccc2c2csc(N)c12,ATCC 750,16 µg/mL
Cc1ccccc1N/N=c1/sc2nnc(-c3ccncc3)n2nc1C,ATCC 66029,>100 µg/mL
CCC(C)CC(C)CCCCCCCCC(=O)N[C@H]1C[C@@H](O)[C@H](NCCN)NC(=O)[C@@H]2[C@@H](O)CCN2C(=O)[C@H]([C@H](O)CCN)NC(=O)[C@H]([C@H](O)[C@@H](O)c2ccc(O)cc2)NC(=O)[C@@H]2C[C@@H](O)CN2C(=O)[C@H]([C@@H](C)O)NC1=O,8662,2 µg/mL
O=C(O)c1ccc(/C=N/NC(=O)c2ccc(CNc3nc4ccccc4[nH]3)cc2)cc1,,25 µg/mL
O=C(CCn1ccnc1)c1ccc2ccccc2c1,RTCC 1065,>64 µg/mL
N#Cc1ccc(/C=N/NC(=O)c2ccc(CNc3nc4ccccc4[nH]3)cc2)cc1,,25 µg/mL
CC1CC2=C(O1)c1ccccc1C(=O)C2=O,Clinical isolate,25.4 µg/mL
O=C(CCn1ccnc1)c1ccc(-c2ccccc2)cc1,RTCC 1065,>64 µg/mL
Cc1nn2c(-c3ccncc3)nnc2s/c1=N/Nc1ccc(F)cc1,ATCC 66029,25 µg/mL
O=C(N/N=C/c1ccccc1)c1ccc(CNc2nc3ccccc3[nH]2)cc1,,25 µg/mL
O=C(CCn1ccnc1)c1ccc(Cl)cc1,RTCC 1065,64 µg/mL
O=C(N/N=C/c1ccc(Br)cc1)c1ccc(CNc2nc3ccccc3[nH]2)cc1,,50 µg/mL
CC(C)(O)c1cn(-c2ccc(Cl)cc2)nn1,URM 4262,128 µg/mL

Again, the opening 3 rows:

compound,strain or isolate,result
O=C(N/N=C/c1ccc(F)cc1)c1ccc(CNc2nc3ccccc3[nH]2)cc1,,100 µg/mL
CCOc1ccc2nc3cc(N=C4NC(=O)/C(=C\c5ccc([N+](=O)[O-])o5)S4)ccc3c(N)c2c1,ATCC 8302,31.3 µg/mL
Cc1nn2c(-c3ccncc3)nnc2sc1=NNc1ccc(Cl)cc1,ATCC 66029,12.5 µg/mL